Reference: patent publication US20170073375A1 (University of Washington, published 2017)

What was measured:
[1] = molecular target: Hemagglutinin (HA) of A/South Carolina/1/1918 (H1N1) (Influenza A virus A/South …, UniProt Q9WFX3 18-520)
[2] = molecular target: Hemagglutinin (HA) of A/turkey/Wisconsin/1/1966 H9N2 (Influenza A virus …, UniProt P03457 19-526)
[3] = molecular target: Hemagglutinin (HA) of A/duck/Alberta/60/1976 H12N5 (Influenza A virus …, UniProt P03446 17-530)

B1: HB36.5 (designed binder)
chain: MSNAMDGQQLNRLLLEWIGAWDPFGLGKDAYDYEAAEVLKAVYETESAFDLAMRIHWIYNFAFKRQIPFAHAQKLARRLLELKQAASSPLP
Work on B1 yielded a Kd [1] of 1.5 nM, a Kd [2] of 82.8 nM and a Kd [3] of 634 nM.
